Data as given in PMC6208485, “Discovery of the first macrolide antibiotic binding protein in Mycobacterium tuberculosis: a new antibiotic resistance drug target” (Protein & Cell, 2018).

Test system: Nc1ncnc2c1ncn2[C@@H]1O[C@H](COP(=O)(O)OP(=O)(O)OP(=O)(O)O)[C@@H](O)[C@H]1O
Assay: purified protein

In the case of “MABP-1 (Rv3197) (Mycobacterium tuberculosis H37Rv)”, the Km is reported as 285 µM.
